Pooled drug test results. Numbers come from NIAID ChemDB, via PubChem.

All rows: whole-cell or culture tests; agent: HIV-1; endpoint: EC50

ECn: concentration that inhibits the pathogen or its effect by n%.

| structure | strain | mutations | cell line | method | result |
|---|---|---|---|---|---|
| CC(C)=CCOc1cc(NC(=S)c2ccoc2C)ccc1Cl | BaL |  | MAC | p24 | 0.03 µM |
| COc1cccc2[nH]cc(C(=O)C(=O)N3CCN(C(=O)c4ccccn4)C[C@H]3C)c12 |  |  | HeLa + HELA CD4+/CCR5 | luciferase | <10 µM |
| CC(C)C1=C2[C@H]3CC[C@@H]4[C@@]5(C)CC[C@H](OC(=O)[C@H]6C[C@@H](C(=O)O)C6(C)C)C(C)(C)[C@@H]5CC[C@@]4(C)[C@]3(C)CC[C@@]2([C@@H](O)CNCC(C)(CO)NC(=O)c2ccc(Cl)cc2)CC1=O | 92HT599 |  | MT-2 | p24 / ELISA | <1 µM |
| C[C@@H]1CN(C(=O)c2ccccc2)CCN1C(=O)C(=O)c1c[nH]c2c(F)c(F)c(F)c(F)c12 |  |  | HeLa + HELA CD4+/CCR5 | luciferase | <10 µM |
| CC(C)C1=C2[C@H]3CC[C@@H]4[C@@]5(C)CC[C@H](OC(=O)[C@H]6C[C@@H](C(=O)O)C6(C)C)C(C)(C)[C@@H]5CC[C@@]4(C)[C@]3(C)CC[C@@]2([C@@H](O)CNC[C@@H](C)NC(=O)c2ccc(Cl)cc2)CC1=O | 92HT599 |  | MT-2 | p24 / ELISA | <1 µM |
| Cc1cc(S(N)(=O)=O)ccc1NC(=O)COc1ccc(Cl)cc1C(=O)c1cc(F)cc(F)c1 | HXB2 | RT-E138K | HeLa + HELA CD4+ | β-galactosidase | <0.01 µM |
| Cc1cc(C(=O)NC[C@H](O)[C@@]23CC[C@]4(C)[C@H](CC[C@@H]5[C@@]6(C)CC[C@H](OC(=O)[C@H]7C[C@@H](C(=O)O)C7(C)C)C(C)(C)[C@@H]6CC[C@]54C)C2=C(C(C)C)C(=O)C3)c(C)o1 | 92HT599 |  | MT-2 | p24 / ELISA | <1 µM |
| Cc1cc(S(N)(=O)=O)ccc1NC(=O)COc1ccc(Cl)cc1C(=O)c1cc(F)cc(C(F)(F)F)c1 | HXB2 | RT-P236L | HeLa + HELA CD4+ | β-galactosidase | <0.01 µM |
| CC(=O)c1c(C)nc(-c2ccccc2)nc1NC(=O)c1ccccc1 | D-92UG046 |  | HeLa | GFP / fluorescence | 1 µM |
| CC(C)=CCOc1cc(NC(=S)c2ccoc2C)ccc1Cl | HEPT-resistant (RT P236L) | RT-P236L | CEM + CEM-SS | cytopathic effect / XTT | 0.02 µM |
| COc1ccc(F)c2c(C(=O)C(=O)N3CCN(C(=O)c4ccccc4)C[C@H]3C)c[nH]c12 |  |  | HeLa + HELA CD4+/CCR5 | luciferase | <10 µM |
| CCC(=O)c1ccc(F)c([C@@H]2C[C@@H]2NC(=O)Nc2ccc(C#N)cn2)c1O | LAI | NNRTI-resistant (RT V106I) | TZM-bl | β-galactosidase / luminescence | 0.00078 µM |
| O=C(O)c1cc(-n2cccc2)ccc1Cl | 92US657 R5 CLADE B |  | PBMC + MT-2 | p24 | 29.73 µM |
| CC(C)=CCN1Cc2cccc3[nH]c(=O)n(c23)CC1C | UC82-R (RT-Y181C) | RT-Y181C | CEM + CEM-SS | cytopathic effect / XTT | 4.4 µM |
| Cc1cc(S(N)(=O)=O)ccc1NC(=O)COc1ccc(Cl)cc1C(=O)c1cc(C#N)cc(C#N)c1 | HXB2 | RT-V106A | HeLa + HELA CD4+ | β-galactosidase | <0.01 µM |
| N#CC1=CC2Nc3ccccc3C2N(c2ccc([N+](=O)[O-])cc2)C1=O | B-HXB2 |  | HeLa | GFP / fluorescence | 0.25 µM |
| CCCc1cc(=O)oc2c3c(c4c(c12)OC(C)(C)CC4)O[C@@H](C)[C@H](C)[C@@H]3O | RF |  | CEM + CEM-SS | cytopathic effect / XTT | 0.6 µM |
| CCc1cc(C#N)cc(C(=O)c2cc(Cl)ccc2OCC(=O)Nc2ccc(S(N)(=O)=O)cc2C)c1 | HXB2 | RT-V106I Y181C | HeLa + HELA CD4+ | β-galactosidase | 0.011–0.1 µM |
| CC(C)=CCOc1cc(NC(=S)c2ccsc2C)ccc1Cl | UC38-RS (RT-Y181C) | RT-Y181C | CEM + CEM-SS | cytopathic effect / XTT | 0.2 µM |
| CC(C)C1=C2[C@H]3CC[C@@H]4[C@@]5(C)CC[C@H](OC(=O)[C@H]6C[C@@H](C(=O)O)C6(C)C)C(C)(C)[C@@H]5CC[C@@]4(C)[C@]3(C)CC[C@@]2(CCNC[C@@H](C)NC(=O)c2ccc(Cl)cc2)CC1=O | 92HT599 |  | MT-2 | p24 / ELISA | <1 µM |
| C[C@@H]1CN(C(=O)c2ccccc2)CCN1C(=O)C(=O)c1c[nH]c2c(C(=O)O)ccc(F)c12 |  |  | HeLa + HELA CD4+/CCR5 | luciferase | <10 µM |
| Cc1cn(-c2ccc(C(=O)NC(C)(C)C(=O)NC[C@H](O)[C@@]34CC[C@]5(C)[C@H](CC[C@@H]6[C@@]7(C)CC[C@H](OC(=O)[C@H]8C[C@@H](C(=O)O)C8(C)C)C(C)(C)[C@@H]7CC[C@]65C)C3=C(C(C)C)C(=O)C4)cc2)cn1 | 92HT599 |  | MT-2 | p24 / ELISA | <1 µM |
| Cc1cc(S(N)(=O)=O)ccc1NC(=O)COc1ccc(Cl)cc1C(=O)c1cc(Cl)cc(Cl)c1 | HXB2 | RT-K103N | HeLa + HELA CD4+ | β-galactosidase | <0.01 µM |
| COc1ccc(OC)c2c(C(=O)C(=O)N3CCN(C(=O)c4ccccc4)CC3)c[nH]c12 |  |  | HeLa + HELA CD4+/CCR5 | luciferase | <10 µM |
| CC(C)C1=C2[C@H]3CC[C@@H]4[C@@]5(C)CC[C@H](OC(=O)[C@H]6C[C@@H](C(=O)O)C6(C)C)C(C)(C)[C@@H]5CC[C@@]4(C)[C@]3(C)CC[C@@]2(CCNCC(C)(C)NC(=O)c2ccc(S(C)(=O)=O)cc2)CC1=O | 92HT599 |  | MT-2 | p24 / ELISA | <1 µM |
| O=C(C(=O)N1CCN(C(=O)c2ccc(Cl)cc2S)CC1)c1c[nH]c2cccc(Cl)c12 |  |  | HeLa + HELA CD4+/CCR5 | luciferase | <10 µM |
| CC(C)C1=C2[C@H]3CC[C@@H]4[C@@]5(C)CC[C@H](OC(=O)[C@H]6C[C@@H](C(=O)O)C6(C)C)C(C)(C)[C@@H]5CC[C@@]4(C)[C@]3(C)CC[C@@]2(CCNCC(C)(C)NC(=O)c2cc(C(C)C)[nH]n2)CC1=O | 92HT599 |  | MT-2 | p24 / ELISA | <1 µM |
| Cc1cc(S(N)(=O)=O)ccc1NC(=O)COc1ccc(Cl)cc1C(=O)c1cccc(C#N)c1 | HXB2 | RT-V106A Y181C | HeLa + HELA CD4+ | β-galactosidase | 0.011–0.1 µM |
| CC(C)C1=C2[C@H]3CC[C@@H]4[C@@]5(C)CC[C@H](OC(=O)[C@H]6C[C@@H](C(=O)O)C6(C)C)C(C)(C)[C@@H]5CC[C@@]4(C)[C@]3(C)CC[C@@]2(CCNCC2(N)CCCCC2)CC1=O | 92HT599 |  | MT-2 | p24 / ELISA | <1 µM |
| COC(=O)c1cccc2c(C(=O)C(=O)N3CCN(C(=O)c4ccccc4)C[C@H]3C)c[nH]c12 |  |  | HeLa + HELA CD4+/CCR5 | luciferase | <10 µM |
| Cc1cc(C#N)cc(C(=O)c2cc(Cl)ccc2OCC(=O)Nc2ccc(OCCCN3CC=CC3)cc2C)c1 | HXB2 | RT-V108I | HeLa + HELA CD4+ | β-galactosidase | <0.01 µM |
| O=C(C(=O)N1CCN(C(=O)c2ccc(O)cc2)CC1)c1c[nH]c2cccc(F)c12 |  |  | HeLa + HELA CD4+/CCR5 | luciferase | <10 µM |
| CC(C)C1=C2[C@H]3CC[C@@H]4[C@@]5(C)CC[C@H](OC(=O)[C@H]6C[C@@H](C(=O)O)C6(C)C)C(C)(C)[C@@H]5CC[C@@]4(C)[C@]3(C)CC[C@@]2(CCNCc2ccc(O[C@@H]3CCOC3)cc2)CC1=O | 92HT599 |  | MT-2 | p24 / ELISA | <1 µM |

3 of the rows above, restated:

C[C@@H]1CN(C(=O)c2ccccc2)CCN1C(=O)C(=O)c1c[nH]c2c(F)c(F)c(F)c(F)c12 ; cell line: HeLa + HELA CD4+/CCR5 ; method: luciferase ; result: <10 µM
Cc1cc(S(N)(=O)=O)ccc1NC(=O)COc1ccc(Cl)cc1C(=O)c1cc(F)cc(F)c1 ; strain: HXB2 ; mutations: RT-E138K ; cell line: HeLa + HELA CD4+ ; method: β-galactosidase ; result: <0.01 µM
CCc1cc(C#N)cc(C(=O)c2cc(Cl)ccc2OCC(=O)Nc2ccc(S(N)(=O)=O)cc2C)c1 ; strain: HXB2 ; mutations: RT-V106I Y181C ; cell line: HeLa + HELA CD4+ ; method: β-galactosidase ; result: 0.011–0.1 µM

Neighbouring rows are from separate reports. Blank or dashed fields: not listed here. Two numbers with a dash give a range or band.